Compound potency records, mixed from different reports. Data source: NIAID ChemDB in PubChem.

All rows: tests in culture; species: HIV-1

ECn is the concentration giving n% inhibition of infection, replication or growth. An empty or dashed field is not shown. Lines come from different laboratories, so protocols vary.

SMILES | endpoint | strain or isolate | read by | cells | mutations | conditions | result
NC1=NS(=O)(=O)N(Cc2ccccc2)c2nc(Cc3ccccc3)[nH]c21 | EC50 | IIIB | syncytia | CEM |  |  | >4 µg/mL
CC1(C)[C@@H](CO)CC[C@@]1(C)Cn1cnc2c(N)ncnc21 | EC50 |  |  | CEM + CEM/0 |  |  | >100 µg/mL
CC[C@@H](NS(=O)(=O)c1ccc(Cl)cc1)c1n[nH]c(=S)o1 | EC50 | IIIB | cytopathic effect | MT-4 |  |  | >122 µg/mL
Cc1cn([C@H]2C=C(F)[C@@H](CO)C2)c(=O)[nH]c1=O | EC90 | LAI | RT activity | PBMC |  |  | >100 µM
CN(C[C@@H](CCN1CCC2(CC1)CS(=O)c1ccccc12)c1ccc(Cl)c(Cl)c1)S(=O)(=O)c1cccs1 | EC50 | YU-2 R5 strain | p24 | PBMC |  |  | <6 µM
Cn1cc(NC(=O)Nc2cc(C(=O)Nc3cc(C(=O)Nc4ccc(P(=O)(O)O)c5cc(P(=O)(O)O)ccc45)n(C)c3)n(C)c2)cc1C(=O)Nc1cc(C(=O)Nc2ccc(P(=O)(O)O)c3cc(P(=O)(O)O)ccc23)n(C)c1 | EC50 | IIIB | cytopathic effect / XTT | CEM + CEM-SS |  |  | 1.3 µM
CCOP(=O)(CO[C@@]1(C2CC2)C[C@@H](n2cnc3c(N)ncnc32)[C@H](C)[C@@H]1C)OCC | EC50 |  | XTT / absorbance | T4 |  |  | >100 µM
CN(CCc1ccccc1)Cc1ccc2c(c1)C[C@H](CN=C(N)N)[C@H]2NC(=O)C(=O)Nc1ccc(Cl)c(F)c1 | EC50 | YU2 | luminescence | Cf2Th-CD4/CCR5 |  |  | 2.2 µM
[N-]=[N+]=N[C@H]1C[C@H](n2cc(CCO)c(=O)[nH]c2=O)O[C@@H]1CO | EC50 | IIIB |  | MT-4 |  |  | >300 µM
CC(C)C1=C2[C@H]3CC[C@@H]4[C@@]5(C)CC[C@H](OC(=O)[C@H]6C[C@@H](C(=O)O)C6(C)C)C(C)(C)[C@@H]5CC[C@@]4(C)[C@]3(C)CC[C@@]2([C@@H](O)CNC(=O)C(C)(NC(=O)c2ccc(Cl)cc2)C(C)O)CC1=O | EC50 | 92HT599 | p24 / ELISA | MT-2 |  |  | <1 µM
Cc1ccc(Cl)c(-n2c(Cc3ccccn3)n[nH]c2=S)c1 | EC50 | IIIB | cytopathic effect / MTT | MT-4 |  |  | >100 µM
Cc1cc(/C=C/C#N)cc(C)c1-c1cccc2cnc(Nc3ccc(C#N)cn3)cc12 | EC50 | HXB2 | cytopathic effect / luminescence | MT-4 | K103N |  | 0.047 µM
Cc1ccccc1S(=O)(=O)c1c(C(N)=O)[nH]c2ccc(Cl)cc12 | EC50 | N119 nevirapine-resistant (RT Y181C) | cytopathic effect / MTT | MT-4 | RT-Y181C |  | 0.16 µM
COc1ccc(S(=O)(=O)NCCCc2n[nH]c(=S)o2)cc1 | EC50 | IIIB | cytopathic effect | MT-4 |  |  | >110 µg/mL
COc1cccc(S(=O)(=O)n2c(=O)[nH]c3ccc(Cl)cc32)c1 | EC50 | IIIB |  | MT-4 |  |  | 0.035 µM
CC1(C)[C@@H](CO)CC[C@@]1(C)Cn1ccc(=O)[nH]c1=O | EC50 |  |  | CEM + CEM/0 |  |  | >100 µg/mL
CC(=O)Oc1ccccc1C(=O)O | EC50 | BaL | p24 | PBMC |  |  | 527 µM
CC(C)CN(C[C@@H](O)[C@H](Cc1cc(F)cc(F)c1)NC(=O)O[C@H]1C2COC3OCC1C3C2)S(=O)(=O)c1ccc2nc(NC3CC3)sc2c1 | EC50 | NL4-3 | p24 | MT-4 |  |  | 0.000018 µM
[2H]C(CO)(CNC(=O)c1ccc(Cl)cc1)NC(=O)C[C@@]12CC[C@]3(C)[C@H](CC[C@@H]4[C@@]5(C)CC[C@H](OC(=O)[C@H]6C[C@@H](C(=O)O)C6(C)C)C(C)(C)[C@@H]5CC[C@]43C)C1=C(C(C)C)C(=O)C2 | EC50 | 92HT599 | p24 / ELISA | MT-2 |  |  | <1 µM
CCCCC#CCSc1ccccc1OC(C)=O | EC50 |  | p24 | U1/HIV-1 + U1 |  | chronic infection | >30 µM
CC(C)(C)C(=O)SCCOP(=O)(CO[C@@]1(C2CC2)C[C@@H](n2cnc3c(N)ncnc32)[C@H](O)[C@@H]1O)OCCSC(=O)C(C)(C)C | EC50 |  | XTT / absorbance | T4 |  |  | 9.8 µM
Cn1cc(NC(=O)Nc2cc(C(=O)Nc3cc(C(=O)Nc4cc(C(=O)Nc5ccc6cc(S(=O)(=O)O)cc(S(=O)(=O)O)c6c5)n(C)c4)n(C)c3)n(C)c2)cc1C(=O)Nc1cc(C(=O)Nc2cc(C(=O)Nc3ccc4cc(S(=O)(=O)O)cc(S(=O)(=O)O)c4c3)n(C)c2)n(C)c1 | EC50 | RF | cytopathic effect / XTT | CEM + CEM-SS |  |  | 1 µM
CCN(C)Cc1ccc2c(c1)C[C@H](CN=C(N)N)[C@H]2NC(=O)C(=O)Nc1ccc(Cl)c(F)c1 | EC50 | JR-FL | luminescence | Cf2Th-CD4/CCR5 |  |  | 10 µM
CCOC(=O)C(C(=O)OCC)=C1NC(=O)N([C@H]2C[C@H](N=[N+]=[N-])[C@@H](CO)O2)C=C1C | EC50 | IIIB |  | MT-4 |  |  | 40 µM
COc1ccc(-c2nnc(-c3ccc(N)cc3)o2)cc1 | EC50 | IIIB | cytopathic effect | MT-4 |  |  | >98 µg/mL
CN(CC(=O)O)Cc1ccc2c(c1)C[C@H](CN=C(N)N)[C@H]2NC(=O)C(=O)Nc1ccc(Cl)c(F)c1 | EC50 | JR-FL | luminescence | Cf2Th-CD4/CCR5 |  |  | 17.1 µM
FC(F)(F)c1cccc(Nc2nnc(Cc3ccccn3)s2)c1 | EC50 | IIIB | cytopathic effect / MTT | MT-4 |  |  | >70.6 µM
O=S(=O)(NCCCc1n[nH]c(=S)o1)c1ccc(Cl)cc1 | EC50 | IIIB | cytopathic effect | MT-4 |  |  | >70 µg/mL
CC(C)C1=C2C(CC1=O)[C@@H](C(=O)NCCN1CCC(S(C)(=O)=O)CC1)C[C@@H]1[C@@H]2CC[C@@H]2C3[C@H](C)C=C(C4=CCC(C(=O)O)CC4)C(C)(C)[C@@H]3CC[C@]21C | EC50 | NL4-3 | MTS / propidium iodide | MT-4 |  |  | >23.9 µM
CC(C)CN(C[C@@H](O)[C@H](Cc1cccc(F)c1)NC(=O)O[C@H]1C2COC3OCC1C3C2)S(=O)(=O)c1ccc2nc(NC3CC3)sc2c1 | EC50 | NL4-3 | p24 | MT-4 |  |  | 0.000057 µM
CC1(C)[C@@H](CO)CC[C@@]1(C)Cn1cnc2c(Cl)ncnc21 | EC50 |  |  | CEM + CEM/0 |  |  | >14 µg/mL
CN1OCCc2cn([C@H]3C[C@H](O)[C@@H](CO)O3)c(=O)nc21 | EC50 | IIIB |  | MT-4 |  |  | >300 µM
Clc1cccc(Nc2nnc(Cc3ccccn3)s2)c1 | EC50 | IIIB | cytopathic effect / MTT | MT-4 |  |  | >100 µM
CN1N=C(N)c2cn([C@@H]3O[C@H](COP(=O)(O)O)[C@@H](O)[C@H]3O)c3ncnc1c23 | EC50 | MN | XTT |  |  |  | 0.01 µg/mL
CC1(C)[C@@H](CO)CC[C@@]1(C)Cn1nnc2c(N)ncnc21 | EC50 |  |  | CEM + CEM/0 |  |  | >100 µg/mL
COc1cc(Cl)ccc1CNCC[C@@]12CC[C@]3(C)[C@H](CC[C@@H]4[C@@]5(C)CC[C@H](OC(=O)[C@H]6C[C@@H](C(=O)O)C6(C)C)C(C)(C)[C@@H]5CC[C@]43C)C1=C(C(C)C)C(=O)C2 | EC50 | 92HT599 | p24 / ELISA | MT-2 |  |  | <1 µM
CC(=O)OCCOCN1c2nc(Cc3ccccc3)[nH]c2C(N)=NS1(=O)=O | EC50 | IIIB | syncytia | CEM |  |  | 29 µg/mL
[N-]=[N+]=N[C@H]1C[C@H](n2cc(CCON)c(=O)[nH]c2=O)O[C@@H]1CO | EC50 | IIIB |  | MT-4 |  |  | >300 µM
CC(C)C1=C2[C@H]3CC[C@@H]4[C@@]5(C)CC[C@H](OC(=O)[C@H]6C[C@@H](C(=O)O)C6(C)C)C(C)(C)[C@@H]5CC[C@@]4(C)[C@]3(C)CC[C@@]2(CC(=O)N[C@H](CNC(=O)c2ccc(Cl)cc2)C(C)O)CC1=O | EC50 | 92HT599 | p24 / ELISA | MT-2 |  |  | <1 µM
CCOC(=O)C(C(=O)OCC)=C1C=CN([C@H]2C[C@H](N=[N+]=[N-])[C@@H](CO)O2)C(=O)N1 | EC50 | IIIB |  | MT-4 |  |  | >300 µM
CC(C)C1=C2C(CC1=O)[C@@H](C(=O)NCCN(CCN(C)C)Cc1ccc(Cl)cc1)C[C@@H]1[C@@H]2CCC2C3C(CC[C@]21C)C(C)(C)C(C1=CC[C@@H](C(=O)O)CC1)=C[C@H]3C | EC50 | NL4-3 | MTS / propidium iodide | MT-4 |  |  | 2.33 µM
CC[C@@H](NS(=O)(=O)c1ccc(OC)cc1)c1n[nH]c(=S)o1 | EC50 | IIIB | cytopathic effect | MT-4 |  |  | >125 µg/mL
CC(C)C1=C2[C@H]3CC[C@@H]4[C@@]5(C)CC[C@H](OC(=O)[C@H]6C[C@@H](C(=O)O)C6(C)C)C(C)(C)[C@@H]5CC[C@@]4(C)[C@]3(C)CC[C@@]2(CCNC(=O)c2ccc(N3CCN(C)CC3)cc2)CC1=O | EC50 | 92HT599 | p24 / ELISA | MT-2 |  |  | <1 µM
O=c1nc2c(cn1[C@H]1C[C@H](O)[C@@H](CO)O1)CCON2 | EC50 | IIIB |  | MT-4 |  |  | >300 µM
Cc1cn([C@@H]2C=C(F)[C@H](CO)C2)c(=O)[nH]c1=O | EC90 | LAI | RT activity | PBMC |  |  | 100 µM
CC(C)C1=C2[C@H]3CC[C@@H]4[C@@]5(C)CC[C@H](OC(=O)[C@H]6C[C@@H](C(=O)O)C6(C)C)C(C)(C)[C@@H]5CC[C@@]4(C)[C@]3(C)CC[C@@]2([C@@H](O)CNC(=O)C2CCNCC2)CC1=O | EC50 | 92HT599 | p24 / ELISA | MT-2 |  |  | <1 µM
O=C(Cc1ccccn1)NNC(=S)Nc1cccc(Cl)c1 | EC50 | IIIB | cytopathic effect / MTT | MT-4 |  |  | >100 µM
COc1cc(-c2ccc(N=Nc3ccc4c(S(=O)(=O)O)cc(S(=O)(=O)O)c(N)c4c3O)c(OC)c2)ccc1N=Nc1ccc2c(S(=O)(=O)O)cc(S(=O)(=O)O)c(N)c2c1O | EC50 | G691-2 | cytopathic effect / XTT | CEM + CEM-SS |  |  | 3.9 µM
Fc1ccc(-n2c(Cc3ccccn3)n[nH]c2=S)cc1Cl | EC50 | IIIB | cytopathic effect / MTT | MT-4 |  |  | >100 µM
Nc1nc2c(ncn2[C@@H]2C=C(F)[C@H](CO)C2)c(=O)[nH]1 | EC50 | LAI | RT activity | PBMC |  |  | 20.7 µM

Repeating the final 5 entries:

SMILES | endpoint | strain or isolate | read by | cells | mutations | conditions | result
CC(C)C1=C2[C@H]3CC[C@@H]4[C@@]5(C)CC[C@H](OC(=O)[C@H]6C[C@@H](C(=O)O)C6(C)C)C(C)(C)[C@@H]5CC[C@@]4(C)[C@]3(C)CC[C@@]2([C@@H](O)CNC(=O)C2CCNCC2)CC1=O | EC50 | 92HT599 | p24 / ELISA | MT-2 |  |  | <1 µM
O=C(Cc1ccccn1)NNC(=S)Nc1cccc(Cl)c1 | EC50 | IIIB | cytopathic effect / MTT | MT-4 |  |  | >100 µM
COc1cc(-c2ccc(N=Nc3ccc4c(S(=O)(=O)O)cc(S(=O)(=O)O)c(N)c4c3O)c(OC)c2)ccc1N=Nc1ccc2c(S(=O)(=O)O)cc(S(=O)(=O)O)c(N)c2c1O | EC50 | G691-2 | cytopathic effect / XTT | CEM + CEM-SS |  |  | 3.9 µM
Fc1ccc(-n2c(Cc3ccccn3)n[nH]c2=S)cc1Cl | EC50 | IIIB | cytopathic effect / MTT | MT-4 |  |  | >100 µM
Nc1nc2c(ncn2[C@@H]2C=C(F)[C@H](CO)C2)c(=O)[nH]1 | EC50 | LAI | RT activity | PBMC |  |  | 20.7 µM